Results of unrelated studies side by side (data: NIAID ChemDB).

Shared fields: tests in culture; agent: HIV-1

An empty or dashed field is not shown.

smiles | changes | setting | strain | endpoint | cells | method | value
CN1N=C(N)c2cn([C@@H]3O[C@H](COP(=O)(O)O)[C@@H](O)[C@H]3O)c3ncnc1c23 |  |  | IIIB | EC50 | CEM + CEM-SS | cytopathic effect / XTT | 0.02 µM
CC(C)c1c(Sc2ccccc2)n(COCc2ccccc2)c(=O)[nH]c1=O | RT-K103N |  | IIIB TIBO R82913-resistant (RT K103N) | EC50 | CEM | syncytia | 0.75 µM
CC(C)CN(C[C@@H](O)[C@H](Cc1ccccc1)NC(=O)O[C@H]1CO[C@H]2OCC[C@H]21)S(=O)(=O)c1ccc(C(N)=O)cc1 |  |  | LAI | EC50 | MT-4 | p24 / luminescence | 0.038 µM
CCc1ccc(CCN=C2NC(=O)/C(=C/c3ccc(-c4ccc(C(=O)O)c(O)c4)o3)S2)cc1 |  | pseudotyped |  | EC50 | TZM-bl | β-galactosidase | 5 µM
NCCC[C@@H](N)CC(=O)NCN |  |  | IIIB | EC50 | PBL | p24 | 7.5 µM
NCC(NC(=O)c1ccc(-c2ccc(C(F)(F)F)c(F)c2)[nH]1)c1nc(CO)cs1 |  |  | NL4-3 | EC50 | PBMC | p24 / ELISA | 0.38 µM
CCOCn1c(Sc2ccccc2)c(CC)c(=O)[nH]c1=O | RT-L100I |  | IIIB (TIBO 82150) (RT-L100I) | EC50 | CEM | syncytia | 0.033 µM
CCO[C@]12CS(=O)(=O)O[C@@]13[C@@H](CN2)O[C@@H](n1cc(C)c(=O)[nH]c1=O)[C@@H]3OC(C)=O |  |  | IIIB | EC50 | CEM |  | >250 µM
CCc1c(Cc2cc(C)cc(C)c2)n(COCC#Cc2ccccc2)c(=O)[nH]c1=O | Y181C |  | IIIB | EC50 | MT-4 | MTT | 2 µM
Cc1cc(CNC(=O)c2nc3n(c(=O)c2O)CCN(C(C)C)CC3N(C)C(=O)C(=O)N(C)C)ccc1F |  |  |  | EC95 | MT-4 | p24 | <1 µM
NC(=O)c1[nH]c2ccc(Cl)cc2c1S(=O)(=O)c1ccccc1 | RT-K103R V179D P225H |  | EFV-resistant (RT K103R V179D P225H) | EC50 | C8166 | p24 | <0.9 µM
CC1c2nc(C(=O)NCc3ccc(F)cc3)c(O)c(=O)n2CCN1C |  |  |  | EC95 | MT-4 | p24 | <1 µM
Cc1cn([C@@H]2O[C@@H]3CN[C@@]4(O[Si](C)(C)C(C)(C)C)CS(=O)(=O)O[C@@]34[C@H]2O[Si](C)(C)C(C)(C)C)c(=O)[nH]c1=O |  |  | IIIB | EC50 | MT-4 |  | >2 µM
C=C(C)[C@@H]1CC[C@]2(C(=O)NCCC(C)(C)C)CC[C@]3(C)[C@H](CC[C@@H]4[C@@]5(C)CC[C@H](OC(=O)CC(C)(C)C(=O)O)C(C)(C)[C@@H]5CC[C@]43C)[C@@H]12 | V370delta |  | NL4-3 | EC50 |  | absorbance | 0.332 µM
CCCCCCCCCC[N+](C)(C)CCCNCc1c(O)cc2c(c1O)-c1cc(ccc1O)[C@H]1NC(=O)[C@@H]3NC(=O)C4NC(=O)[C@@H](Cc5ccc(c(Cl)c5)Oc5cc3cc(c5O)Oc3ccc(cc3Cl)[C@@H](O)[C@H](NC1=O)C(=O)N[C@@H]2C(=O)O)NC(=O)[C@H](N)c1ccc(O)c(c1)Oc1cc(O)cc4c1 |  |  | IIIB | EC50 | CEM | syncytia | 2.8 µM
COc1cc(/C=C2/SC(=O)N(CC(=O)Nc3nc4ccc(SC#N)cc4s3)C2=O)cc(OC)c1OC |  |  | IIIB | EC50 | MT-4 | MTT | >54 µM
Cc1cn([C@@H]2O[C@@H]3CN[C@@]4(OCCOc5ccccc5)CS(=O)(=O)O[C@@]34[C@H]2O[Si](C)(C)C(C)(C)C)c(=O)[nH]c1=O |  |  | IIIB | EC50 | MT-4 |  | >5 µM
Cc1cc(/C=C/C#N)cc(C)c1Oc1ccnc(Nc2ccc(CN3CCN(S(=O)(=O)N(C)C)CC3)cc2)n1 | Y188L |  |  | EC50 | MT-4 | MTT | >3.07 µM
O=C1Nc2ccc(Cl)cc2[C@@](C#CC2CC2)(C(F)(F)F)O1 | F227L + V106A |  |  | EC50 | MT-4 | MTT | 0.255 µM
C[C@@H]1CCO[C@H]2Cn3cc(C(=O)NCc4ccc(F)cc4F)c(=O)c(O)c3C(=O)N12 |  |  |  | EC50 | TZM-bl | luciferase / luminescence | 0.0025 µM
C[C@H](NP(=O)(OC[C@@H]1C=C[C@H](n2ccc(=O)[nH]c2=O)O1)Oc1ccccc1)C(=O)OCc1ccccc1 |  |  |  | EC50 | CEM | syncytia | >50 µM
CCOCn1c(Sc2ccccc2)c(C(C)C)c(=O)[nH]c1=O | Nevirapine resistant (RT Y181C) |  | IIIB | EC50 | CEM | syncytia | 2 µM
CCCCCCN(CCCCCC)c1ccc(/C=C2/SC(=O)N(CC(=O)Nc3nc4ccc(SC#N)cc4s3)C2=O)cc1 |  |  | IIIB | EC50 | MT-4 | MTT | >39 µM
CC1(C)c2nc(C(=O)NCc3ccc(F)cc3)c(O)c(=O)n2CCN1Cc1ccn[nH]1 |  |  |  | EC50 | MT-4 | p24 | <1 µM
Cc1cc(C)cc(Sc2c(C(C)C)c(=O)[nH]c(=S)n2COCCO)c1 | RT-E138K |  | IIIB | EC50 | CEM | syncytia | 0.05 µM
Cc1ccnc2c1NC(=O)c1cccnc1N2C1CC1 |  |  | SF162 | EC50 | TZM-bl | luciferase | 0.03179 µM
NCCCC1CC(=O)NCN1 |  |  | IIIB | EC50 | MT-4 | cytopathic effect / MTT | >100 µg/mL
CN1CCn2c(nc(C(=O)NCc3ccc(F)cc3)c(O)c2=O)C(NCc2ccccc2)C1 |  |  |  | EC95 | MT-4 | p24 | <50 µM
CCc1c(Cc2cc(C)cc(C)c2)n(COCC#Cc2ccc(NC(=O)C(F)(F)F)cc2)c(=O)[nH]c1=O | K103N + Y181C |  | IIIB | EC50 | MT-4 | MTT | 1.6 µM
CC(C)[C@H](NC(=O)OCc1ccccn1)C(=O)N[C@@H](Cc1ccccc1)[C@@H](O)C[C@H](Cc1ccccc1)NC(=O)OCc1cccnc1 | PR-L10R M46I L63P V82T |  | NL4-3 | EC50 | MT-4 | p24 | <3 µM
Cn1nnnc1CN1CCn2c(nc(C(=O)NCc3ccc(F)cc3)c(O)c2=O)C1(C)C |  |  |  | EC95 | MT-4 | p24 | <1 µM
N#CSc1ccc2nc(NC(=O)CN3C(=O)S/C(=C/c4ccccc4Cl)C3=O)sc2c1 |  |  | IIIB | EC50 | MT-4 | MTT | >73 µM
Cn1nccc1CN1CCn2c(nc(C(=O)NCc3ccc(F)cc3)c(O)c2=O)C1(C)C |  |  |  | EC50 | MT-4 | p24 | <1 µM
CCc1c(Sc2cc(C)cc(C)c2)n(COCCO)c(=O)[nH]c1=O | Nevirapine resistant (RT Y181C) |  | IIIB | EC50 | CEM | syncytia | 0.25 µM
CCO[C@]12CS(=O)(=O)O[C@@]13C(CN2)O[C@@H](n1cc(C)c(=O)[nH]c1=O)[C@@H]3O[Si](C)(C)C(C)(C)C |  |  | IIIB | EC50 | CEM |  | 7.7 µM
CC(C)OC(=O)[C@H](C)NP(=O)(OC[C@@H]1C=CC(n2ccc(=O)[nH]c2=O)O1)Oc1ccccc1 |  |  |  | EC50 | CEM | syncytia | >250 µM
O=C1NC(=Nc2ccc(F)c(Cl)c2)S/C1=C\c1ccc(-c2ccc(C(=O)O)c(O)c2)o1 |  |  | NL4-3 | EC50 | TZM-bl | β-galactosidase | 1 µM
CCc1c(Cc2cc(C)cc(C)c2)n(COCc2cn(-c3cccnc3)nn2)c(=O)[nH]c1=O | WT |  | IIIB | EC50 | MT-4 | MTT | 0.008 µM
CO[C@]12CS(=O)(=O)O[C@@]13C(CN2)O[C@@H](n1cc(C)c(=O)[nH]c1=O)[C@@H]3O[Si](C)(C)C(C)(C)C |  |  | IIIB | EC50 | CEM |  | 5.5 µM
CC(C)OC(=O)[C@H](C)NP(=O)(OC[C@@H]1C=CC(n2ccc(=O)[nH]c2=O)O1)Oc1cccc2ccccc12 |  |  |  | EC50 | CEM | syncytia | 200 µM
O=C1NC(=NCc2ccc(Cl)c(F)c2)S/C1=C\c1ccc(-c2ccc(C(=O)O)c(O)c2)o1 |  |  | AD8 | EC50 | TZM-bl | β-galactosidase | 3 µM
Cc1cn([C@@H]2O[C@@H]3CN[C@@]4(OCC5CCOC5)CS(=O)(=O)O[C@@]34[C@H]2O)c(=O)[nH]c1=O |  |  | IIIB | EC50 | MT-4 |  | 23.9 µM
CCOCn1c(Cc2ccccc2)c(C(C)C)c(=O)[nH]c1=O | RT-L100I |  | IIIB (TIBO 82150) (RT-L100I) | EC50 | CEM | syncytia | 0.02 µM
Cn1cc(NC(=O)Nc2cc(C(=O)Nc3cc(C(=O)Nc4ccc(S(=O)(=O)O)c5cc(S(=O)(=O)O)ccc45)n(C)c3)n(C)c2)cc1C(=O)Nc1cc(C(=O)Nc2ccc(S(=O)(=O)O)c3cc(S(=O)(=O)O)ccc23)n(C)c1 |  |  | WEJO | EC50 | PBL | p24 | 5.3 µM
Cc1cn([C@H]2C=C[C@@H](CO)O2)c(=O)[nH]c1=O |  |  |  | EC50 | CEM | syncytia | 0.65 µM
CCc1c(Cc2cc(C)cc(C)c2)n(COCC#CC#CCO[Si](c2ccccc2)(c2ccccc2)C(C)(C)C)c(=O)[nH]c1=O | Y181C |  | IIIB | EC50 | MT-4 | MTT | >76 µM
CCOCn1c(Cc2ccccc2)c(CC)c(=O)[nH]c1=O | RT-Y181I |  | IIIB | EC50 | CEM | syncytia | 6.9 µM
Cc1cn([C@@H]2O[C@@H]3CN[C@@]4(OCCO)CS(=O)(=O)O[C@@]34[C@H]2O)c(=O)[nH]c1=O |  |  | IIIB | EC50 | MT-4 |  | >250 µM
CCc1c(Cc2cc(C)cc(C)c2)n(COCc2ccc(C#CCO)cc2)c(=O)[nH]c1=O | EFV-resistant (K103R V179D P225H) |  | IIIB | EC50 | MT-4 | MTT | 0.5 µM
Nc1ccn([C@H]2CC[C@@H](CO)O2)c(=O)n1 | H258Q A312T |  | NL4-3 | EC50 |  | β-galactosidase | 0.633 µM
CC[C@]1(CO)O[C@@H](n2cnc3c(N)ncnc32)C[C@@H]1O | M184V (delta)Env |  |  | EC50 | HOS | luciferase | >10 µM
N#CSc1ccc2nc(NC(=O)CN3C(=O)S/C(=C/c4cccc(-c5ccco5)c4)C3=O)sc2c1 |  |  | IIIB | EC50 | MT-4 | MTT | >100 µM
O=C1NC(=NCCc2ccc(F)cc2)S/C1=C\c1ccc(-c2ccc(C(=O)O)c(O)c2)o1 |  |  | AD8 | EC50 | TZM-bl | β-galactosidase | 0.6 µM
CCc1c(Cc2cc(C)cc(C)c2)n(COCc2cn(Cc3c(F)cccc3F)nn2)c(=O)[nH]c1=O | EFV-resistant (K103R V179D P225H) |  | IIIB | EC50 | MT-4 | MTT | 4 µM
O=C1NC(=NCc2cccc(F)c2)S/C1=C\c1ccc(-c2ccc(C(=O)O)c(O)c2)o1 |  |  | AD8 | EC50 | TZM-bl | β-galactosidase | 1.3 µM
CCc1c(Sc2cc(C)cc(C)c2)n(COCc2ccccc2)c(=S)[nH]c1=O | RT-K103N |  | IIIB TIBO R82913-resistant (RT K103N) | EC50 | CEM | syncytia | 0.11 µM

For reference, 3 entries again:

smiles	changes	setting	strain	endpoint	cells	method	value
CCO[C@]12CS(=O)(=O)O[C@@]13C(CN2)O[C@@H](n1cc(C)c(=O)[nH]c1=O)[C@@H]3O[Si](C)(C)C(C)(C)C			IIIB	EC50	CEM		7.7 µM
Cn1cc(NC(=O)Nc2cc(C(=O)Nc3cc(C(=O)Nc4ccc(S(=O)(=O)O)c5cc(S(=O)(=O)O)ccc45)n(C)c3)n(C)c2)cc1C(=O)Nc1cc(C(=O)Nc2ccc(S(=O)(=O)O)c3cc(S(=O)(=O)O)ccc23)n(C)c1			WEJO	EC50	PBL	p24	5.3 µM
CC(C)c1c(Sc2ccccc2)n(COCc2ccccc2)c(=O)[nH]c1=O	RT-K103N		IIIB TIBO R82913-resistant (RT K103N)	EC50	CEM	syncytia	0.75 µM

ECn: concentration that inhibits the pathogen or its effect by n%. Lines come from different laboratories, so protocols vary.